Where no end group is shown, it is not given here.
Test system: ZIKV
Experiment: RNase A protection assay
Parameters: species or system Zika virus
Conditions: then RNase A 1 h

Row | Substance | amount of viral RNA after RNase A treatment (10 μM for 1 h, RT-qPCR) | viral RNA upon RNase A treatment (1% detergent for 1 h, control)
1 | MANAGLQLLGFILAFLGW [CL1.1] | identical to the untreated virus | 
2 | Triton X-100 [reference compound] |  | degraded

Source: article PMC9603178, “Human Claudin-Derived Peptides Block the Membrane Fusion Process of Zika Virus and Are Broad Flavivirus Inhibitors” (Microbiology Spectrum, 2022)
